The subject of this series is bladder (detrusor) contractility of BoNT treated rats. The conditions noted are these: rat, in vivo.

Consider `CN(C)C(=O)Oc1cccc([N+](C)(C)C)c1` [neostigmine], for which the “detrusor contractility during the filling phase” value is recorded as “do not show increased”.

For the origin of these results see patent US20150030667A1, “COMPOSITIONS AND METHODS FOR TREATING U[…]” (priority 2013, published 2015).
